PubChem BioAssay AID1259414 – Drosophila RNAi Screening Center, 2018
The screen tested about 24,000 reagents; this is an unselected part of those that have a named target and a result. Of all reagents, about 1,210 (5%) were called active. 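Inactive calls also include excluded dsRNAs with several or no targets, genes unexpressed in JW18, and well A1, regardless of score.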

- Purpose: 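Host factors increasing or decreasing Wolbachia levels in cultured fly cells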 (primary screen)
- Cell system: Drosophila JW18 cells infected with Wolbachia
- Reagent: long dsRNA against Drosophila genes, 0.25 µg dsRNA per well of a 384-well plate
- Duration: 5 days
- Challenge: cells persistently infected with Wolbachia before knock-down; no added drug
- Measurement: 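Imaged fluorescence in situ signal for Wolbachia 23S rRNA per DAPI-counted host cell, given as a robust z-score within each plate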
- Direction: Wolbachia per cell robust z: higher = more Wolbachia per host cell than the plate typical
- Call rule: 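Active if absolute robust z reaches 1.5 in two or more of three replicates, leaving out multi- or no-target dsRNAs, genes unexpressed in JW18 and A1 wells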

Against Vha26 [DRSC12371], the entry reads Wolbachia per cell robust z, rep 1 = 0.141; Wolbachia per cell robust z, rep 2 = 0.302; Wolbachia per cell robust z, rep 3 = -0.28; inactive.
Knock-down of Vha26 [DRSC25503] gave: Wolbachia per cell robust z, rep 1 = -0.514; Wolbachia per cell robust z, rep 2 = 1.33; Wolbachia per cell robust z, rep 3 = 1.88; inactive.
Silencing of Vha26 [DRSC38973] came out at: Wolbachia per cell robust z, rep 1 = 0.561; Wolbachia per cell robust z, rep 2 = 1.53; Wolbachia per cell robust z, rep 3 = 2.26; inactive.
CG17601 [DRSC20639] showed Wolbachia per cell robust z, rep 1 = -0.104; Wolbachia per cell robust z, rep 2 = -1.25; Wolbachia per cell robust z, rep 3 = -0.729; inactive.
Against dy [DRSC20325], the entry reads Wolbachia per cell robust z, rep 1 = -0.259; Wolbachia per cell robust z, rep 2 = 0.327; Wolbachia per cell robust z, rep 3 = 0.0563; inactive.
Against dy [DRSC25539], the entry reads Wolbachia per cell robust z, rep 1 = 1.02; Wolbachia per cell robust z, rep 2 = 0.604; Wolbachia per cell robust z, rep 3 = -0.548; inactive.
After knock-down of TTLL5 [DRSC14181] the results were Wolbachia per cell robust z, rep 1 = -0.000478; Wolbachia per cell robust z, rep 2 = -0.609; Wolbachia per cell robust z, rep 3 = -0.49; inactive.
ben [DRSC20310] gave Wolbachia per cell robust z, rep 1 = -0.896; Wolbachia per cell robust z, rep 2 = -1.51; Wolbachia per cell robust z, rep 3 = -1.3; inactive.
After knock-down of ben [DRSC21261], the screen gave Wolbachia per cell robust z, rep 1 = 0.554; Wolbachia per cell robust z, rep 2 = 0.533; Wolbachia per cell robust z, rep 3 = 0.743; inactive.
Knock-down of ben [DRSC29133] gave: Wolbachia per cell robust z, rep 1 = -0.0394; Wolbachia per cell robust z, rep 2 = 0.313; Wolbachia per cell robust z, rep 3 = -0.864; inactive.
Depletion of Sod2 [DRSC07554] came out at: Wolbachia per cell robust z, rep 1 = -1.16; Wolbachia per cell robust z, rep 2 = 0.804; Wolbachia per cell robust z, rep 3 = 0.0281; inactive.
For Sod2 [DRSC27050], the values are Wolbachia per cell robust z, rep 1 = -2.06; Wolbachia per cell robust z, rep 2 = 0.181; Wolbachia per cell robust z, rep 3 = 1.9; inactive.
After knock-down of CG8892 [DRSC03121], the record shows Wolbachia per cell robust z, rep 1 = 0.468; Wolbachia per cell robust z, rep 2 = -0.507; Wolbachia per cell robust z, rep 3 = 1.59; inactive.
Silencing of Tie [DRSC08104] resulted in: Wolbachia per cell robust z, rep 1 = 0.913; Wolbachia per cell robust z, rep 2 = 0.747; Wolbachia per cell robust z, rep 3 = 1.81; inactive.
Tie [DRSC08702] scored Wolbachia per cell robust z, rep 1 = 1.18; Wolbachia per cell robust z, rep 2 = 0.604; Wolbachia per cell robust z, rep 3 = -1.69; inactive.
For Sr-CIV [DRSC00575] the deposit lists Wolbachia per cell robust z, rep 1 = -0.642; Wolbachia per cell robust z, rep 2 = -0.814; Wolbachia per cell robust z, rep 3 = -1.42; inactive.
Against Sr-CIV [DRSC24930] the deposit lists Wolbachia per cell robust z, rep 1 = 0.166; Wolbachia per cell robust z, rep 2 = 0.523; Wolbachia per cell robust z, rep 3 = 2.21; inactive.
For vkg [DRSC03632] the deposit lists Wolbachia per cell robust z, rep 1 = -0.318; Wolbachia per cell robust z, rep 2 = 0.572; Wolbachia per cell robust z, rep 3 = 0.434; inactive.
lilli [DRSC00708] gave Wolbachia per cell robust z, rep 1 = -5.73; Wolbachia per cell robust z, rep 2 = -1.56; Wolbachia per cell robust z, rep 3 = -0.463; inactive.
After knock-down of lilli [DRSC40693] the results were Wolbachia per cell robust z, rep 1 = 0.201; Wolbachia per cell robust z, rep 2 = 1.07; Wolbachia per cell robust z, rep 3 = -1.66; inactive.
After knock-down of CG15522 [DRSC15059], the record shows Wolbachia per cell robust z, rep 1 = -1.99; Wolbachia per cell robust z, rep 2 = 0.315; Wolbachia per cell robust z, rep 3 = -4.99; active.
CG15522 [DRSC29412] scored Wolbachia per cell robust z, rep 1 = -1.75; Wolbachia per cell robust z, rep 2 = -0.966; Wolbachia per cell robust z, rep 3 = -0.61; inactive.
After knock-down of abd-A [DRSC13179], the screen gave Wolbachia per cell robust z, rep 1 = -0.148; Wolbachia per cell robust z, rep 2 = -0.923; Wolbachia per cell robust z, rep 3 = -0.197; inactive.
abd-A [DRSC23013] gave Wolbachia per cell robust z, rep 1 = -0.934; Wolbachia per cell robust z, rep 2 = -0.0376; Wolbachia per cell robust z, rep 3 = -0.0134; inactive.
Knock-down of abd-A [DRSC29065] came out at: Wolbachia per cell robust z, rep 1 = 0.397; Wolbachia per cell robust z, rep 2 = -0.893; Wolbachia per cell robust z, rep 3 = 0.673; inactive.

Targets listed so far whose gene name starts with D or d (2):
dy [DRSC20325] — Wolbachia per cell robust z, rep 1 = -0.259; Wolbachia per cell robust z, rep 2 = 0.327; Wolbachia per cell robust z, rep 3 = 0.0563; activity call = inactive
dy [DRSC25539] — Wolbachia per cell robust z, rep 1 = 1.02; Wolbachia per cell robust z, rep 2 = 0.604; Wolbachia per cell robust z, rep 3 = -0.548; activity call = inactive
